Measured values as given in PMC10618370, “Mur ligase F as a new target for the flavonoids quercitrin, myricetin, and (–)-epicatechin” (Journal of Computer-Aided Molecular Design, 2023).
Some compounds share one wording; it may come from a single statement.

Test: Assay interference screen (malachite green-based assay)
Conditions: 100 µM compound, absorbance at 650 nm

Row | SMILES | Interference with the malachite green assay (in words)
1 | Oc1cc(O)c2c(c1)O[C@H](c1ccc(O)c(O)c1)[C@@H](O)C2 [Compound 22, (+)-catechin] | increased the absorbance at 650 nm
2 | O=c1cc(-c2ccc(O)c(O)c2)oc2cc(OC3OC(CO)C(O)C(O)C3O)cc(O)c12 (stereo not drawn) [Compound 15] | increased the absorbance at 650 nm
3 | COc1cc([C@@H]2[C@H]3CO[C@@]4(O)C(=O)[C@@H]2C=C([C@H]2Oc5cc(O)cc(O)c5C(=O)[C@@H]2O)[C@@H]34)ccc1O [Compound 24, silydianin] | increased the absorbance at 650 nm
